Pooled drug test results. Numbers come from NIAID ChemDB, via PubChem.

Common to all: tests in culture; organism: Candida glabrata

Zones are inhibition diameters on agar. ECn: concentration that inhibits the pathogen or its effect by n%. MIC50, MIC90 and the like: level of inhibition, or share of isolates inhibited. An empty or dashed field is not shown. Neighbouring rows are from separate reports. Percent inhibition refers to the dose given; in toxicity tests it is the harm to the cells.

COc1ccccc1/C=N/c1n[nH]c(N)n1 ; method: agar diffusion / agar ; tested at: 200 µg/mL ; read-out: inhibition ; value: 0%
Nc1ncccc1-c1cc(Cc2ccc(COc3ccccn3)cc2)no1 ; method: broth dilution ; strain or isolate: 8653 ; read-out: MIC ; value: 0.03 µg/mL
C=CC(C)(C)c1cc(C2CC(=O)c3c(cc(O)c(CC=C(C)C)c3O)O2)c(O)cc1O ; method: agar diffusion / agar ; strain or isolate: hemoculture isolate 36293 ; tested at: 2 mg/mL ; read-out: zone ; value: 0 mm
C[C@@H](c1ncncc1F)[C@](O)(Cn1cncn1)c1ccc(F)cc1F ; method: broth dilution ; strain or isolate: 40 isolates ; read-out: EC90 ; setting: pH 5 ; value: >16 µg/mL
Nc1nc(/N=C/c2ccc[n-]2)n[nH]1.Nc1nc(/N=C/c2ccc[n-]2)n[nH]1.[O]=[V+2] ; method: agar diffusion / agar ; tested at: 200 µg/mL ; read-out: inhibition ; value: 75%
CC1CC(=O)N(Cc2ccccc2)C1=O ; method: broth dilution / turbidity ; strain or isolate: CCC 115-2000 ; read-out: MIC ; value: 125 µg/mL
C=CCc1ccc(O)c(OC)c1 ; method: turbidity ; strain or isolate: ATCC 90030 ; read-out: MIC90 ; value: 490 µg/mL
C/C(=N\c1n[nH]c(N)n1)c1ccccn1.C/C(=N\c1n[nH]c(N)n1)c1ccccn1.[O]=[V+2] ; method: agar diffusion / agar ; tested at: 200 µg/mL ; read-out: inhibition ; value: 75%
C[C@@H]1CC(=O)N(c2ccc(Br)cc2)C1=O ; method: broth dilution / turbidity ; strain or isolate: CCC 115-2000 ; read-out: MIC ; value: 62.5 µg/mL
COc1ccccc1/C=N/c1n[nH]c(N)n1.COc1ccccc1/C=N/c1n[nH]c(N)n1.[O]=[V+2] ; method: agar diffusion / agar ; tested at: 200 µg/mL ; read-out: inhibition ; value: 39%
CC(=O)N1CCN(c2ccc(OC[C@H]3CO[C@](Cn4ccnc4)(c4ccc(Cl)cc4Cl)O3)cc2)CC1 ; method: agar diffusion / agar ; strain or isolate: G1 ; tested at: 20 mg/mL ; read-out: zone ; value: 18 mm
CC1C(=O)N(CCCc2ccccc2)C(=O)C1C ; method: broth dilution / turbidity ; strain or isolate: CCC 115-2000 ; read-out: MIC ; value: 125 µg/mL
Nc1nc(/N=C/c2ccccn2)n[nH]1.Nc1nc(/N=C/c2ccccn2)n[nH]1.[O]=[V+2] ; method: agar diffusion / agar ; tested at: 200 µg/mL ; read-out: inhibition ; value: 78%
COC(=O)[C@H]1[C@@H]2C[C@@H](O[C@@H]3O[C@H](C)[C@@H](O)[C@H](N)[C@@H]3O)/C=C/C=C/C=C/C=C/C=C/C=C/C=C/[C@H](C)[C@@H](O)[C@H](C)[C@H](C)OC(=O)C[C@H](O)C[C@H](O)[C@@H](O)CC[C@H](O)C[C@H](O)C[C@](O)(C[C@@H]1O)O2 ; method: broth dilution ; strain or isolate: 40 isolates ; read-out: MIC ; setting: pH 7 ; value: 0.125 µg/mL
CC1CC(=O)N(c2ccc([N+](=O)[O-])cc2)C1=O ; method: broth dilution / turbidity ; strain or isolate: CCC 115-2000 ; read-out: MIC ; value: 125 µg/mL

A second listing of 2 rows from above:

structure,method,strain or isolate,tested at,read-out,setting,value
C[C@@H]1CC(=O)N(c2ccc(Br)cc2)C1=O,broth dilution / turbidity,CCC 115-2000,-,MIC,-,62.5 µg/mL
Nc1nc(/N=C/c2ccc[n-]2)n[nH]1.Nc1nc(/N=C/c2ccc[n-]2)n[nH]1.[O]=[V+2],agar diffusion / agar,-,200 µg/mL,inhibition,-,75%